A mixed list of measured activities; the numbers were collected in NIAID ChemDB.

Common to all: tests in culture; species: Cryptococcus neoformans

MIC50, MIC90 and the like: level of inhibition, or share of isolates inhibited.

| compound | measure | method | strain or isolate | result |
|---|---|---|---|---|
| COc1nc2c(c(-c3ccc4c(c3)OCO4)c1C#N)CSc1ccccc1-2 | MIC | - | Farwania | 3 µg/mL |
| COc1ccc2c(c1)C(=O)/C(=C/c1ccc3ccccc3c1)CO2 | MIC | - | 25 | 12.5 µg/mL |
| Oc1ccccc1N=Cc1ccc2c(c1)OCO2 | MIC99 | - | 5396 | 5.7 µg/mL |
| Cc1ccc(/C=C2\COc3ccccc3C2=O)cc1 | MIC | - | 93/V | 25 µg/mL |
| CN[C@H]1CC[C@@H](c2ccc(Cl)c(Cl)c2)c2ccccc21 | MFC | broth dilution | 163.99 | 6 µg/mL |
| CCC(C)n1ncn(-c2ccc(N3CCN(c4ccc(OC[C@H]5CO[C@](Cn6cncn6)(c6ccc(Cl)cc6Cl)O5)cc4)CC3)cc2)c1=O | MIC90 | - | 32 isolates | 0.008 µg/mL |
| COC1CC2CCC(C)C(O)(O2)C(=O)C(=O)N2CCCCC2C(=O)OC(C(C)CC2CCC(O)C(OC)C2)CC(=O)C(C)/C=C(\C)C(O)C(OC)C(=O)C(C)C[C@](C)(N(O)C(=O)NN2CCCCC2)/C=C/C=C/C=C/1C | MFC | - | TOR1-1 | >100 µg/mL |
| CCOC(=O)c1c(C)nc(OCCCNc2ccnc3cc(Cl)ccc23)nc1-c1ccccc1 | MIC99 | - | WP | 8 µg/mL |
| CC(C(O)(Cn1cncn1)c1ccc(F)cc1F)S(C)(=O)=O | EC50 | - | R716 (AZOLE-R) | 4 µM |
| CCOc1nc2c(c(-c3ccc4ccccc4c3)c1C#N)CSc1ccc(Cl)cc1-2 | MIC | - | 25 | 100 µg/mL |
| O=[N+]([O-])c1ccc(C=Nc2ccccc2O)cc1 | MIC | broth dilution | 5396 | 22.6 µg/mL |
| N#CC1=C(c2ccccc2)C2=C(NC1O)c1ccccc1SC2 | MIC | - | 93/V | 100 µg/mL |
| COc1cc(/C=C2\CSc3ccccc3C2=O)ccc1O | MIC | - | 25 | 25 µg/mL |
| COc1ccc(C2C(C#N)=C(N)OC3=C2CSc2ccccc23)cc1OC | MIC | - | 93/V | 25 µg/mL |
| Oc1ccc(O)c(C=Nc2ccccc2O)c1 | MIC99 | - | ATCC 24067 | 8 µg/mL |
| COc1ccc(/C=C2\COc3ccc(-c4ccccc4)cc3C2=O)cc1OC | MIC | - | 93/V | 50 µg/mL |
| N#CC1=C(N)OC2=C(CSc3ccccc32)C1c1cccc2ccccc12 | MIC | - | 25 | 12.5 µg/mL |
| Oc1ccccc1N=Cc1cccc(O)c1O | MIC99 | - | WP | 2.8 µg/mL |
| COC1CC2CCC(C)C(O)(O2)C(O)C(O)N2CCCCC2C(=O)OC(C(C)CC2CCC(O)C(OC)C2)CC(=O)C(C)/C=C(\C)C(O)C(OC)C(=O)C(C)CC(C)/C=C/C=C/C=C/1C | MIC | - | TOR1-1 | >100 µg/mL |
| COc1ccc(/C=C2\CS(=O)(=O)c3ccccc3C2=O)cc1 | MIC | - | 25 | 25 µg/mL |
| COc1ccc(C2C(C#N)=C(N)OC3=C2CSc2ccccc23)cc1 | MIC | - | Farwania | 50 µg/mL |
| C[C@@H](c1ncncc1F)[C@](O)(Cn1cncn1)c1ccc(F)cc1F | MIC | broth dilution | Clinical isolate (IM 972751) | <0.015 µg/mL |
| C[C@@H](n1cnc2cc(Cl)ccc2c1=O)[C@](O)(Cn1cncn1)c1ccc(F)cc1F | MFC | - | Isolate H99 | 20 µg/mL |
| Oc1ccccc1N=Cc1ccccc1 | MIC99 | - | 5396 | 5.7 µg/mL |
| C[C@@H](n1ncn(-c2ccc(OCC(F)(F)C(F)F)cc2)c1=O)[C@](O)(Cn1cncn1)c1ccc(F)cc1F | MIC | - | DUMC 123.96 | 0.0625 µg/mL |
| CC[C@@H]([C@H](C)O)n1ncn(-c2ccc(N3CCN(c4ccc(OC[C@@H]5CO[C@@](Cn6cncn6)(c6ccc(F)cc6F)C5)cc4)CC3)cc2)c1=O | MIC | - | DUMC 251.86 | 0.063 µg/mL |
| COc1ccc(/C=C2\CCc3ccccc3C2=O)cc1OC | MIC | - | 25 | 25 µg/mL |
| COc1ccccc1-c1c(C#N)c(OC)nc2c1CSc1ccccc1-2 | MIC | - | 25 | 25 µg/mL |
| Cn1nc(Cc2ccc(Cl)cc2)c2ccccc2c1=O | MIC | broth dilution | Clinical isolate (IM 042074) | 15.6 µg/mL |
| Oc1ccccc1N=Cc1ccc(F)cc1 | MIC99 | - | 28JF | 11.3 µg/mL |
| C[C@@H](c1ncncc1F)[C@](O)(Cn1cncn1)c1ccc(F)cc1F | MIC | broth dilution | B 32480 | 0.031 µg/mL |
| CCOC(=O)c1c(C)nc(NCCCCNc2ccnc3cc(Cl)ccc23)nc1-c1ccc(F)cc1 | MIC99 | - | VM-MCMMPI | 8 µg/mL |
| O=C1/C(=C/c2ccc(F)cc2)CCc2ccccc21 | MIC | - | 93/V | 50 µg/mL |

2 of the rows above, restated:

CC(C(O)(Cn1cncn1)c1ccc(F)cc1F)S(C)(=O)=O ; measure: EC50 ; strain or isolate: R716 (AZOLE-R) ; result: 4 µM
COC1CC2CCC(C)C(O)(O2)C(O)C(O)N2CCCCC2C(=O)OC(C(C)CC2CCC(O)C(OC)C2)CC(=O)C(C)/C=C(\C)C(O)C(OC)C(=O)C(C)CC(C)/C=C/C=C/C=C/1C ; measure: MIC ; strain or isolate: TOR1-1 ; result: >100 µg/mL

ECn is the concentration giving n% inhibition of infection, replication or growth. An empty or dashed field is not shown. Conditions beyond the fields shown may differ between rows.